Measured values taken from paper PMC12118597 (Science Advances, 2025).
Values joined by “and” are separate entries in the source; they are usually repeats but may differ in a detail not shown here. Equal entries are not always repeated.

Experiments:
[1] = target: T1, SARS-CoV-2 NSP3 macrodomain (Mac1) (Severe acute respiratory syndrome coronavirus 2, UniProt P0DTD1)
[2] = target: T1, SARS-CoV-2 NSP3 macrodomain (Mac1); remark: listed apart in the source

Compound: Cc1c[nH]c2ncnc(NCC3(O)CCCCC3)c12 [AVI-3761, 1-(((5-methyl-7H-pyrrolo[2,3-d]pyrimidin-4-yl)amino)methyl)cyclohexan-1-ol]
- 1-BDC [1]: 0.2
- 1-BDC (PanDDA run, DMSO background map) [1]: 0.2 and 0.19
- 2*(1-BDC) (%) [1]: 40%
- Binding site [1]: Adenosine
- Hit (PanDDA run, DMSO background map) [1]: TRUE
- Hit (PanDDA run, overall) [1]: TRUE
- Refined ligand occupancy (%) [1]: 60%
- X-ray crystal structure [1]: TRUE
- Hill slope [2]: 1.1
- Hillslope [2]: 1.1
